A mixed list of measured activities; the numbers were collected in NIAID ChemDB.

All rows: whole-cell or culture tests; species: Herpes simplex virus 1; read by: cytopathic effect; read-out: EC50

ECn: concentration that inhibits the pathogen or its effect by n%.

compound | strain or isolate | cell line | value
CCOC(=O)CSc1nnc(-c2cn(-c3ccccc3)nc2-c2ccccc2)n1N | KOS | HEL | >80 µg/mL
Nc1nc(=O)n([C@@H]2O[C@H](CO)[C@@H](O)[C@@H]2F)cc1I | KOS | BSC-1 | 0.2 µg/mL
Cc1cc([C@H]2C[C@H](O)[C@@H](CO)O2)c(Cl)cc1F | F | E6SM | >400 µg/mL
Cc1nn2c(-c3cn(-c4ccccc4)nc3-c3ccccc3)nnc2s1 | KOS (TK-) | HEL | >16 µg/mL
OC[C@H]1O[C@@H](c2cc(C#CI)c(F)cc2F)C[C@@H]1O | F | E6SM | >400 µg/mL
O=c1[nH]c(=O)n([C@@H]2C[C@H](CO)[C@@H](O)C2)cc1/C=C/Br | KOS | PRK | 0.05 µg/mL
C=C(N=CC)c1nc(-c2ccc(C)cc2)n(C2O[C@H](CO)[C@@H](O)[C@H](O)[C@H]2O)n1 | KOS | E6SM | >200 µg/mL
S=c1[nH]nc(-c2cn(-c3ccccc3)nc2-c2ccccc2)o1 | KOS | HEL | >16 µg/mL
Nc1ccn(CC(CO)OCP(=O)(O)O)c(=O)n1 | KOS | Human embryonic lung fibroblasts | 2 µM
O=c1[nH]c(=O)n([C@H]2C[C@H](O)[C@@H](CO)O2)cc1CCCl | KOS | PRK | 0.15 µg/mL
OC[C@H]1O[C@@H](c2cc(I)c(F)cc2F)C[C@@H]1O | McIntyre | E6SM | >400 µg/mL
CCCc1cn([C@H]2C[C@H](O)[C@@H](COP(=O)(O)O)O2)c(=O)[nH]c1=O | B2006 (TK-) | BSC-1 | >797 µg/mL
O=c1[nH]c(=O)n([C@H]2C[C@H](O)[C@@H](CO)O2)cc1/C=C/Br | KOS | Primary rabbit kidney cells | 0.007 µg/mL
c1c[nH]c(CNCc2cc(CNCc3ccc[nH]3)c(CNCc3ccc[nH]3)cc2CNCc2ccc[nH]2)c1 | TK- KOS ACVr | Human embryonic lung fibroblasts | >100 µM
OC[C@H]1O[C@@H](c2cc(C#CBr)c(F)cc2F)C[C@@H]1O | KOS | E6SM | 9.6 µg/mL
O=c1[nH]c(=O)n([C@@H]2C[C@H](CO)[C@@H](O)C2)cc1I | VMW1837 (TK-) | PRK | >400 µg/mL
O=c1c2ncn(COC(CO)CO)c2nc2[nH]c(-c3ccc(C(F)(F)F)cc3)cn12 | KOS | HEL | 1.92 µg/mL
c1c[nH]c(CNCc2c(CNCc3ccc[nH]3)c(CNCc3ccc[nH]3)c(CNCc3ccc[nH]3)c(CNCc3ccc[nH]3)c2CNCc2ccc[nH]2)c1 | TK- KOS ACVr | Human embryonic lung fibroblasts | >20 µM
O=c1[nH]c(=O)n([C@H]2C[C@H](O)[C@@H](COP(=O)([O-])OP(=O)([O-])OC[C@@H]3OC(O)[C@H](O)[C@H](O)[C@H]3O)O2)cc1I | B2006 (TK-) | E6SM | 200 µg/mL
CC=NC(=N)c1nc(-c2cccc(C)c2)n(C/C=C/c2ccccc2)n1 | VMW 1837 | E6SM | >4 µg/mL
CCCc1cn([C@H]2C[C@H](O)[C@@H](CO)O2)c(=O)[nH]c1=O | KOS | PRK | 3 µg/mL
Nc1nc(=O)n(C2CC(O)C(CO)O2)cc1CCCl | McIntyre | PRK | 0.7 µg/mL
O=c1[nH]c(=O)n([C@@H]2O[C@H](CO)[C@@H](O)[C@@H]2O)cc1/C=C/Br | KOS | PRK | 0.1 µg/mL
COc1nc(=O)n([C@H]2C[C@H](O)[C@@H](CO)O2)cc1/C=C/Cl | KOS | PRK | 0.2 µg/mL
O=c1[nH]c(=O)n([C@H]2C[C@H](O)[C@@H](CO)O2)cc1/C=C/Br | KOS | HEP-2 | 0.02 µg/mL
CCc1cn([C@H]2C[C@H](O)[C@@H](CO)O2)c(=O)[nH]c1=O | F | PRK | 0.2 µg/mL
Cc1c(-c2ccc(F)cc2)[nH]c2nc3c(ncn3COCCO)c(=O)n12 | KOS | HEL | 0.384 µg/mL
OC[C@H]1O[C@@H](c2cc(Cl)c(F)cc2F)C[C@@H]1O | F | E6SM | >400 µg/mL
CCCCCCCC/C=C/CCCCCCCC(=O)O | HU-10 | HEL | >100 µM
O=c1[nH]c(=O)n([C@H]2C[C@@H](CO)[C@H](O)C2)cc1I | McIntyre | PRK | 20 µg/mL
Nc1nc2c(ncn2COC(CO)CO)c(=O)[nH]1 | HU-10 | HEL | >400 µM
Nc1ncnc2c1ncn2[C@@H]1O[C@H](COP(=O)(O)O)[C@@H](O)[C@H]1O | - | E6SM | >400 µg/mL
Nc1ncnc2c1ncn2[C@@H]1O[C@H](CO)[C@@H](O)[C@@H]1O | KOS | BSC-1 | 60 µg/mL
C=Cc1cc([C@H]2C[C@H](O)[C@@H](CO)O2)c(F)cc1F | VMW1837 (TK-) | E6SM | >400 µg/mL
O=c1[nH]c(=O)n(C2CC(CO)[C@@H](O)C2)cc1/C=C/Br | F | PRK | 0.06 µg/mL
CCOC(=O)Sc1nnc(-c2cn(-c3ccccc3)nc2-c2ccccc2)n1N | KOS (TK-) | HEL | >16 µg/mL
Nc1ncnc2c1ncn2[C@@H]1O[C@H](COP(=O)(O)O[C@@H]2[C@H](O)[C@@H](COP(=O)(O)O[C@@H]3[C@H](O)[C@@H](COP(=O)(O)OP(=O)(O)OC[C@@H]4OC(O)[C@H](O)[C@H](O)[C@H]4O)O[C@H]3n3cnc4c(N)ncnc43)O[C@H]2n2cnc3c(N)ncnc32)[C@@H](O)[C@H]1O | - | PRK | 200 µg/mL
CCc1c(CN[C@@H]2CCCC[C@H]2NCc2ccc[nH]2)c(CC)c(CN[C@@H]2CCCC[C@H]2NCc2ccc[nH]2)c(CC)c1CN[C@@H]1CCCC[C@H]1NCc1ccc[nH]1 | KOS | Human embryonic lung fibroblasts | >0.16 µM
Cc1cn([C@@]2(C=O)C[C@H](O)[C@@H](CO)S2)c(=O)[nH]c1=O | - | HEL | 20 µg/mL
O=c1[nH]c(=O)n([C@H]2C[C@H](O)[C@@H](COP(=O)(O)O)O2)cc1I | B2006 (TK-) | E6SM | 40 µg/mL
Nc1nc(=O)n([C@H]2C[C@H](O)[C@@H](CO)O2)cc1/C=C/Cl | B2006 (TK-) | PRK | >400 µg/mL
C=C(N=CC)c1nc(-c2ccc(C)cc2)n([C@@H]2O[C@H](CO)[C@@H](O)[C@H]2O)n1 | VMW 1837 | E6SM | >40 µg/mL
Nc1nc2c(ncn2COCCO)c(=O)[nH]1 | 15616SC16 (acyclovir-susceptible) | HFF | 0.5 µg/mL
COc1ccc(-c2[nH]c3nc4c(ncn4COCCO)c(=O)n3c2C)cc1 | McIntyre | HEL | 1.92 µg/mL
O=C(O)P(=O)(O)O | HU-3 | HEL | 150 µM
N#Cc1cc([C@H]2C[C@H](O)[C@@H](CO)O2)c(F)cc1F | McIntyre | E6SM | >400 µg/mL
O=c1[nH]c(=O)n([C@H]2C[C@H](O)[C@@H](CO)O2)cc1I | KOS | HEP-2 | 0.7 µg/mL
CC=NC(=N)c1nc(-c2ccc(C)cc2)n(COCCO)n1 | VMW 1837 | E6SM | >10 µg/mL
Cc1c(-c2ccc(C(F)(F)F)cc2)[nH]c2nc3c(ncn3COCCO)c(=O)n12 | TK- | HEL | >16 µg/mL

For reference, 4 entries again:

compound,strain or isolate,cell line,value
OC[C@H]1O[C@@H](c2cc(C#CBr)c(F)cc2F)C[C@@H]1O,KOS,E6SM,9.6 µg/mL
C=C(N=CC)c1nc(-c2ccc(C)cc2)n([C@@H]2O[C@H](CO)[C@@H](O)[C@H]2O)n1,VMW 1837,E6SM,>40 µg/mL
CCc1c(CN[C@@H]2CCCC[C@H]2NCc2ccc[nH]2)c(CC)c(CN[C@@H]2CCCC[C@H]2NCc2ccc[nH]2)c(CC)c1CN[C@@H]1CCCC[C@H]1NCc1ccc[nH]1,KOS,Human embryonic lung fibroblasts,>0.16 µM
O=c1[nH]c(=O)n([C@H]2C[C@@H](CO)[C@H](O)C2)cc1I,McIntyre,PRK,20 µg/mL

An empty or dashed field is not shown. Lines come from different laboratories, so protocols vary.